A mixed list of measured activities; the numbers were collected in NIAID ChemDB.

Inhibition is in % at the dose shown (toxicity tests: loss of growth or viability). ICn is the concentration giving n% inhibition. Neighbouring rows are from separate reports. ECn is the concentration giving n% inhibition of infection, replication or growth. An empty or dashed field is not shown.

smiles	test	species	strain	cells	protein	endpoint	tested at	result
CCC(C)NC(=O)C(NC(C)=O)[C@H]1CC(C(=O)O)C[C@@H]1N=C(N)N	target	Influenza A virus (H6N2)	-	-	Neuraminidase	IC50	-	0.41 µM
Nc1nc2c(ncn2COCCO)c(=O)[nH]1	culture	Cowpox virus	-	VERO	-	EC50	-	>444 µM
O=C(N[C@@H](Cc1ccc(O)cc1)C(=O)NCc1cccnc1)c1ccc2c(c1)nc(-c1ccoc1)n2C1CCCCC1	target	Poliovirus	-	-	RNA-dependent RNA polymerase	IC50	-	>25 µM
Nc1nc(=O)n([C@@H]2C=C(CO)[C@@H](O)[C@H]2O)cc1F	culture	Variola virus	BSH	VERO	-	EC50	-	1.17 µg/mL
CCCCCCCCCCCCCCCCCC(=O)OC[C@@H](COP(=O)(O)OCCNCCO[C@@]1(C(=O)O)O[C@@H]([C@H](O)[C@H](O)CO)[C@H](NC(C)=O)[C@@H](O)[C@H]1F)OC(=O)CCCCCCCCCCCCCCCCC	target	Influenza A virus	H2N2 A/Singapore/1/57	-	Sialidase	IC50	-	31.3 µM
Nc1ccn(C[C@@H](CO)OCP(=O)(O)O)c(=O)n1	culture	Monkeypox virus	-	3T3	-	EC50	-	8 µM
Cc1nnsc1-c1nc2cc(C(=O)N[C@H](C(=O)O)c3c[nH]c4ccc(O)cc34)ccc2n1C1CCCCC1	target	Poliovirus	-	-	RNA-dependent RNA polymerase	IC50	-	>25 µM
Nc1ccn(C[C@@H](CO)OCP(=O)(O)O)c(=O)n1	culture	Variola virus	Isolate Hinden	VERO	-	EC50	-	10 µg/mL
NC(=O)c1c[se]c([C@@H]2O[C@H](CO)[C@@H](O)[C@H]2O)n1	culture	Vaccinia virus	Elstree	VERO	-	EC50	-	3 µg/mL
CCCCCCCCCCCCCCCCCC(=O)OC[C@@H](COP(=O)(O)OCCNCCO[C@@]1(C(=O)O)O[C@@H]([C@H](O)[C@H](O)CO)[C@H](NC(C)=O)[C@@H](O)[C@H]1F)OC(=O)CCCCCCCCCCCCCCCCC	target	Influenza A virus	H1N1 A/DUCK/36/4/76	-	Sialidase	IC50	-	125 µM
Cc1cc(-c2nc3cc(C(=O)N[C@H](C(=O)O)c4c[nH]c5ccc(O)cc45)ccc3n2C2CCCCC2)n[nH]1	target	Poliovirus	-	-	RNA-dependent RNA polymerase	IC50	-	>25 µM
Cc1cn([C@H]2C=C[C@@H](CO)O2)c(=O)[nH]c1=O	culture	Cowpox virus	-	HFF	-	EC50	-	>446 µM
CC(=O)NC(C(=O)N1CCC1)[C@H]1CC(C(=O)O)C[C@@H]1N=C(N)N	target	Influenza A virus (H6N2)	-	-	Neuraminidase	IC50	-	0.92 µM
O=C(N[C@@H](Cc1ccc(O)cc1)C(=O)O)c1ccc2c(c1)nc(-c1ccoc1)n2C1CCCCC1	target	Poliovirus	-	-	RNA-dependent RNA polymerase	IC50	-	>25 µM
CCCCCCCCCCCCC/C=C/[C@@H](O)[C@H](CO[C@@H]1O[C@H](CO)[C@H](O)[C@H](OS(=O)(=O)O)[C@H]1O)NC(=O)CCCCCCCCCCCCCCCCCCCCCCC	target	Influenza A virus	Influenza A/Kumamoto/55/76 (H3N2)	-	Sialidase	inhibition	200 µM	99.3%
CNc1nc(C[C@H](Cc2ccc(OCC(=O)O)cc2)NC(=O)c2ccc3c(c2)nc(-c2ccoc2)n3C2CCCCC2)cs1	target	Poliovirus	-	-	RNA-dependent RNA polymerase	IC50	-	>25 µM
O=c1[nH]cnc2c1ncn2[C@@H]1C=C(CO)[C@@H](O)[C@H]1O	culture	Variola virus	BSH	MK2	-	EC50	-	>100 µg/mL
Nc1ccn(C[C@H]2COP(=O)(O)CO2)c(=O)n1	culture	Monkeypox virus	-	VERO 76	-	EC50	-	165 µM
Nc1ccn(C[C@H]2COP(=O)(O)CO2)c(=O)n1	culture	Variola virus	Isolate Somalia	VERO	-	EC50	-	8 µg/mL
NC(=O)c1c[se]c([C@@H]2O[C@H](CO)[C@@H](O)[C@H]2O)n1	culture	Yellow fever virus	Asibi	LLC-MK2	-	EC50	-	0.08 µg/mL
O=C(N[C@@H](Cc1c[nH]c2ccc(O)cc12)C(=O)O)c1ccc2c(c1)nc(-c1ccco1)n2C1CCCCC1	target	Poliovirus	-	-	RNA-dependent RNA polymerase	IC50	-	>25 µM
NC(=O)c1ncn([C@@H]2O[C@H](CO)[C@@H](O)[C@H]2O)n1	culture	Cowpox virus	-	VERO	-	EC50	-	>246 µM
NC(=O)[C@H](Cc1c[nH]c2ccc(NS(=O)(=O)C(F)(F)F)cc12)NC(=O)c1ccc2c(c1)nc(-c1ccoc1)n2C1CCCCC1	target	Poliovirus	-	-	RNA-dependent RNA polymerase	IC50	-	>25 µM
CCNC(=O)C(NC(C)=O)[C@H]1CC(C(=O)O)C[C@@H]1N=C(N)N	target	Influenza A virus (H6N2)	-	-	Neuraminidase	IC50	-	0.33 µM
CS(=O)(=O)Nc1ccc2[nH]cc(C[C@H](NC(=O)c3ccc4c(c3)nc(-c3ccoc3)n4C3CCCCC3)C(=O)O)c2c1	target	Poliovirus	-	-	RNA-dependent RNA polymerase	IC50	-	>25 µM
CCCCCCCCCCCCCCCCCCOCCOP1(=O)CO[C@@H](Cn2ccc(N)nc2=O)CO1	culture	Vaccinia virus	IHD	HFF	-	EC50	-	0.04 µM
Nc1nccc2c1ncn2[C@@H]1C[C@H](CO)[C@@H](O)[C@H]1O	culture	Variola virus	Isolate Yamada	VERO	-	EC50	-	5.3 µg/mL
CN(C)c1nc([C@H](Cc2c[nH]c3ccc(O)cc23)NC(=O)c2ccc3c(c2)nc(-c2ccoc2)n3C2CCCCC2)cs1	target	Poliovirus	-	-	RNA-dependent RNA polymerase	IC50	-	>25 µM

3 of the rows above, restated:

smiles	test	species	strain	cells	protein	endpoint	tested at	result
Nc1nc(=O)n([C@@H]2C=C(CO)[C@@H](O)[C@H]2O)cc1F	culture	Variola virus	BSH	VERO	-	EC50	-	1.17 µg/mL
Nc1nc2c(ncn2COCCO)c(=O)[nH]1	culture	Cowpox virus	-	VERO	-	EC50	-	>444 µM
O=C(N[C@@H](Cc1c[nH]c2ccc(O)cc12)C(=O)O)c1ccc2c(c1)nc(-c1ccco1)n2C1CCCCC1	target	Poliovirus	-	-	RNA-dependent RNA polymerase	IC50	-	>25 µM